Source: article PMC8878501 (Marine Drugs, 2022)

Amino acid sequences for entries named in this document (tags omitted). A change or cut given only in a name is not applied to a line headed by its entry. Residues count along the entry.
UniProt P02716, 25-520 limits assumed: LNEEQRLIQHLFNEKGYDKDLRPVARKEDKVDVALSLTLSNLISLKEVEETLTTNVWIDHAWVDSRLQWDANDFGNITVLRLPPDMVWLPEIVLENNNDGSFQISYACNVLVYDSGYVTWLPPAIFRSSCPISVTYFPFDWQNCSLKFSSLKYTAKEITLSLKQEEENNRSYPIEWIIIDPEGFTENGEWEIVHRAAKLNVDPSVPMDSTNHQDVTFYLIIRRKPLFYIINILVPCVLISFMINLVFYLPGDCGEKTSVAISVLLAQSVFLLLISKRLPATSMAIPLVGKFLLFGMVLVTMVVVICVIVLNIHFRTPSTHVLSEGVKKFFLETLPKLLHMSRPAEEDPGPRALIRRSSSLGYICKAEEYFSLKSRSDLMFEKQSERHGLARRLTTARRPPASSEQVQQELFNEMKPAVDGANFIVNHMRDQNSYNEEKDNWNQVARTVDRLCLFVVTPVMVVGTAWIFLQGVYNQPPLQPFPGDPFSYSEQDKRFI
UniProt P09690, 24-501 partner limits assumed: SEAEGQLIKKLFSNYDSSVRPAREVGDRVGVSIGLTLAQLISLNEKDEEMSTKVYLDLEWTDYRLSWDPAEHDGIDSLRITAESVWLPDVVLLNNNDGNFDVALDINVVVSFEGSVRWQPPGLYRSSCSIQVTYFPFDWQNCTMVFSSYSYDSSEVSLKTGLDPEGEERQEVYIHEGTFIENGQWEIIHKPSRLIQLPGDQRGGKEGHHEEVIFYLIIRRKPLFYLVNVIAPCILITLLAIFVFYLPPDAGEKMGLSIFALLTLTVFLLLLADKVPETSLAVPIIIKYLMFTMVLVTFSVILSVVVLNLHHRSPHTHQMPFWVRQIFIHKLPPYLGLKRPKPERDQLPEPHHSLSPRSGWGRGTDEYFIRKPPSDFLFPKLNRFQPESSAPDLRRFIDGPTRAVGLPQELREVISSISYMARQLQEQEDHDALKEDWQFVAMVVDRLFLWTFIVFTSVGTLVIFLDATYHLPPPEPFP
UniProt P20782, 21-493 limits assumed: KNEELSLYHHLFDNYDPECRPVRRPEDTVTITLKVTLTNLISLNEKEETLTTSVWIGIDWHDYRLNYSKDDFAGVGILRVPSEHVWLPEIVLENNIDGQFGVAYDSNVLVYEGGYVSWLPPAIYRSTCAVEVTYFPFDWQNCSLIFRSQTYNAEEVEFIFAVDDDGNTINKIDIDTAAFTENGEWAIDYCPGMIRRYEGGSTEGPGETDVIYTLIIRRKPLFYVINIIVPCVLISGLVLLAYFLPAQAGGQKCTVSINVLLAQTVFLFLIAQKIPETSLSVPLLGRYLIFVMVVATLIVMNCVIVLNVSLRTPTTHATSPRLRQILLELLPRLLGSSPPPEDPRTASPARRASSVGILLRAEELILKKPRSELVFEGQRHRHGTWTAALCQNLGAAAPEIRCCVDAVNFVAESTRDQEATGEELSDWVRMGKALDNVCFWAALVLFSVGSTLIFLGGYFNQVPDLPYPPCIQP

Biological target: mα1β1δɛ nAChR (Mus musculus, UniProt P02716+P04756+P09690+P20782)
Assay: Two-electrode voltage clamp, mα1β1δε nAChR in Xenopus laevis oocytes
Conditions: 10 µM ACh

CC[C@H](C)[C@@H]1NC(=O)[C@H](CCC(=O)O)NC(=O)[C@@H]2CCCN2C(=O)[C@H](Cc2c[nH]cn2)NC(=O)[C@H]([C@@H](C)O)NC(=O)[C@H](CCC(N)=O)NC(=O)[C@H](C)NC(=O)[C@@H]2CSSC[C@H](NC(=O)[C@H](CCC(=O)O)NC(=O)[C@@H](N)CC(=O)O)C(=O)N[C@@H](CSSC[C@@H](C(N)=O)NC1=O)C(=O)N[C@@H](CO)C(=O)N[C@@H](CC(N)=O)C(=O)N1CCC[C@H]1C(=O)N[C@@H](CO)C(=O)N2 [QuIA]
IC50 (−70 mV, less than 50% blocking at 10 µM): > 10 µM
blocking of ACh-induced current (at 10 µM): ^a Values in parentheses are a 95% confidence interval (C.I.). ^b Less than 50% blocking at 10 µM. All receptors are of rat (r) or human (h) origin, except α1β1δε, which is of mouse (m) origin. ND, not determined.
